Values from PubChem BioAssay AID504761 (Drosophila RNAi Screening Center, 2011)
In all, the deposit lists about 22,000 reagents; below is an unselected part of those with a known target gene and a result. Over the whole deposit, 116 (0.52%) are marked active. 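Calls depend on retest data that are not deposited; infection was ranked per plate without normalising between plates; the unit of the infection score is not given.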 Raw values vary from plate to plate and are shown uncorrected. No sequences are given here. Not given: the amount of reagent, the time to read-out.

Purpose: 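Genome-wide fly cell screen for genes dengue virus requires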 (primary screen)
Cell system: D.Mel-2 cells from Drosophila
Reagent: long dsRNA against Drosophila genes
Conditions: infection with dengue virus type 2; dose and infection time not stated
Measured: 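Per well on two replicate plates, imaging gave the percent of cells positive for viral envelope protein, ranked by infection, and a nuclear count of cells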
Reading the numbers: infection score: higher = more virus-infected cells; cell count: higher = more cells in the well
Active means: 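Very low infection ranking in both replicate wells (chance probability at most 0.065), then a retest showing infection dropped 1.5-fold or more at p below 0.05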
Meaning of the calls: active = confirmed: knock-down lowers infection; inactive = not picked or not confirmed

Which result is listed for CG3253 (GeneID 37861) [DRSC04350]?
infection score, replicate 1: 4.88; infection score, replicate 2: 5.34; cell count, replicate 1: 6472; cell count, replicate 2: 6667; call: inactive

What is on record for CG3253 (GeneID 37861) [DRSC29358]?
infection score, replicate 1: 17.4; infection score, replicate 2: 10.7; cell count, replicate 1: 5034; cell count, replicate 2: 4487; call: inactive

How did the screen score Antdh (GeneID 32058) [DRSC20307]?
infection score, replicate 1: 17.3; infection score, replicate 2: 11.8; cell count, replicate 1: 4527; cell count, replicate 2: 6043; call: inactive

What did the screen give for Antdh (GeneID 32058) [DRSC25689]?
infection score, replicate 1: 4.42; infection score, replicate 2: 4.41; cell count, replicate 1: 6283; cell count, replicate 2: 6186; call: inactive

Which result is listed for glo (GeneID 41431) [DRSC16145]?
infection score, replicate 1: 1.97; infection score, replicate 2: 4.15; cell count, replicate 1: 6591; cell count, replicate 2: 6791; call: inactive

How did the screen score glo (GeneID 41431) [DRSC27807]?
infection score, replicate 1: 3.26; infection score, replicate 2: 17.4; cell count, replicate 1: 2975; cell count, replicate 2: 6669; call: inactive

With chinmo (GeneID 33343) [DRSC00485], how do the results read?
infection score, replicate 1: 2.19; infection score, replicate 2: 4.69; cell count, replicate 1: 6850; cell count, replicate 2: 6825; call: inactive

For chinmo (GeneID 33343) [DRSC00509], how do the results read?
infection score, replicate 1: 7.65; infection score, replicate 2: 5.16; cell count, replicate 1: 6370; cell count, replicate 2: 7074; call: inactive

What did the screen give for chinmo (GeneID 33343) [DRSC22413]?
infection score, replicate 1: 1.07; infection score, replicate 2: 0.44; cell count, replicate 1: 5314; cell count, replicate 2: 5953; call: inactive

Which result is listed for chinmo (GeneID 33343) [DRSC28547]?
infection score, replicate 1: 16.9; cell count, replicate 1: 4313; cell count, replicate 2: 356; call: inactive

Which result is listed for CG10307 (GeneID 37477) [DRSC04057]?
infection score, replicate 1: 3.57; infection score, replicate 2: 21.8; cell count, replicate 1: 6549; cell count, replicate 2: 5236; call: inactive

For CG10307 (GeneID 37477) [DRSC26316], how do the results read?
infection score, replicate 1: 5.76; infection score, replicate 2: 9.58; cell count, replicate 1: 5037; cell count, replicate 2: 6253; call: inactive

Which result is listed for Pburs (GeneID 34845) [DRSC02483]?
infection score, replicate 1: 4.6; infection score, replicate 2: 5.31; cell count, replicate 1: 5756; cell count, replicate 2: 6125; call: inactive

With CG33523 (GeneID 38668) [DRSC09814], what was measured?
infection score, replicate 1: 1.93; infection score, replicate 2: 23.7; cell count, replicate 1: 6426; cell count, replicate 2: 5468; call: inactive

What is on record for CG33523 (GeneID 38668) [DRSC22155]?
infection score, replicate 1: 2.24; infection score, replicate 2: 27.4; cell count, replicate 1: 6642; cell count, replicate 2: 4925; call: inactive

How did the screen score CG6661 (GeneID 39556) [DRSC10687]?
infection score, replicate 1: 4.76; infection score, replicate 2: 10.7; cell count, replicate 1: 6203; cell count, replicate 2: 5856; call: inactive

What did the screen give for CG6980 (GeneID 42955) [DRSC16162]?
infection score, replicate 1: 2.44; infection score, replicate 2: 4.49; cell count, replicate 1: 6638; cell count, replicate 2: 6412; call: inactive

For CG6980 (GeneID 42955) [DRSC29355], what does the deposit list?
infection score, replicate 1: 23.4; infection score, replicate 2: 1.41; cell count, replicate 1: 5956; cell count, replicate 2: 639; call: inactive

What did the screen give for AstCC (GeneID 34538) [DRSC02404]?
infection score, replicate 1: 3.27; infection score, replicate 2: 9.83; cell count, replicate 1: 6673; cell count, replicate 2: 6447; call: inactive

How did the screen score Tsp42En (GeneID 35624) [DRSC06185]?
infection score, replicate 1: 3.1; infection score, replicate 2: 26.2; cell count, replicate 1: 6027; cell count, replicate 2: 5886; call: inactive

For CG3308 (GeneID 42527) [DRSC15474], what does the deposit list?
infection score, replicate 1: 10.3; infection score, replicate 2: 3.64; cell count, replicate 1: 6522; cell count, replicate 2: 6914; call: inactive

What did the screen give for CG10340 (GeneID 42020) [DRSC14232]?
infection score, replicate 1: 3.85; infection score, replicate 2: 11.1; cell count, replicate 1: 6542; cell count, replicate 2: 6640; call: inactive

What is on record for Svip (GeneID 317834) [DRSC08982]?
infection score, replicate 1: 3.56; infection score, replicate 2: 3.41; cell count, replicate 1: 6315; cell count, replicate 2: 6750; call: inactive

What is on record for Svip (GeneID 317834) [DRSC28597]?
infection score, replicate 1: 9.27; infection score, replicate 2: 8; cell count, replicate 1: 3872; cell count, replicate 2: 1425; call: inactive

For CtsL4 (GeneID 34401) [DRSC02849], how do the results read?
infection score, replicate 1: 11.9; infection score, replicate 2: 3.44; cell count, replicate 1: 6425; cell count, replicate 2: 6710; call: inactive

With Nf-YB (GeneID 35261) [DRSC02057], what does the deposit list?
infection score, replicate 2: 9.64; cell count, replicate 1: 501; cell count, replicate 2: 6443; call: inactive

For CCHa1 (GeneID 41711) [DRSC24978], how do the results read?
infection score, replicate 1: 3.16; infection score, replicate 2: 3.61; cell count, replicate 1: 6264; cell count, replicate 2: 6503; call: inactive

Targets above whose gene name starts with S or s:
Svip (GeneID 317834) [DRSC08982] → infection score, replicate 1: 3.56; infection score, replicate 2: 3.41; cell count, replicate 1: 6315; cell count, replicate 2: 6750; call: inactive
Svip (GeneID 317834) [DRSC28597] → infection score, replicate 1: 9.27; infection score, replicate 2: 8; cell count, replicate 1: 3872; cell count, replicate 2: 1425; call: inactive
